Experimental data reported in the supplement of paper PMC9931576.
Human monoclonal antibodies against the spike receptor-binding domain (heavy:light variable regions). IC50 against pseudoviruses bearing the spike of naturally observed variants; lower = stronger; >10 µg/ml means not reached at the top dose. No active / inactive call. The stated detection limit is 0.0005 µg/ml; values near or below 0.001 µg/ml lie at the floor of the assay.

B1: BD55-5324 (protein)
chain 1: QVQLVQSGSELKKPGASVKVSCKTSGYTFTTYAIKWVRQAPGQGLEWMGWINTNTGHPTYAQGFTGRFVFSSDTSVTTAYLQINSLKAEDTAIYYCAKVFCSGGTCYDVDYWGQGTLITVSS
chain 2: QSVLTQPPSASGTPGQSVTISCSGSISNIGSNFVYWYQKFPGTAPKLLIYRNNHRPSGLPDRFSGSKSGTSASLAISGLRSEDEADYYCAAWDDSLSGRLFGGGTKLTVL
B2: BD55-5325 (protein)
chain 1: QITLKESGPTLVKPTQTLTLTCTFSGFSLSNTEVGVGWIRQPPGKALEWLALIYWDDDKRYSPSLKSRLTIAKDTSKNQVVLTMTNVDPVDTATYFCAHSHYDFLTGFSGFDYWGPGTVVTVSS
chain 2: DIVMTQTPLSSPVTLGQPASISCTSSQSLVHSDGNTYLNWLQQRPGQPPRLLIYQISKRFSGVPDRFTGSGAGTDFTLNISRVEAEDVGVYSCMQATQFPHEMYTFGQGTKLEIK
B3: BD55-5326 (protein)
chain 1: QVQLVQSGAEVKRPGASVKVSCRTSGYTFTDYYIHWVRQAPGQGLEWMGIINPSAGTTTYARKFQGRVTLTRDTSTSTVSMDLSSLRSDDTAVYYCAREGLTGFSANWFDPWGQGTLVTVSS
chain 2: DIQLTQSPSFLSASVGDRVTITCRASEDIASYLAWYQQKPGKAPKFLIYAASTLQSGVPSRFSGRRSGTEFTLTISSLQPEDFATYFCQQLNGYPITFGGGTRVEIK
B4: BD55-5333 (protein)
chain 1: QITLRESGPTLVKPTQTLTLTCTFSGFSLTTRGVGVAWVRQPPGKALEWLALLYWDDDTRYSPSLKSRVSVTKDTSKNQVVLTMTNMDPVDTGTYYCAHSSTPRASFDHWFDPWGQGTLVTVSS
chain 2: QSVLTQPPSVSEAPRQRVTISCSGSSSNIGHNPVTWYQQFPGEAPKLLMYYDDRLPSGVSDRFSGSRSGTSASLAISGLQSGDEADYYCATWDDRLNGLVFGGGTKLTVL
B5: BD55-5342 (protein)
chain 1: QVQLVQSGAEVKKPGASVKVSCKASGYTFTTYAITWVRQAPGQGLELMGWISTYTGSAIYAQQLQGRVTMTTDTSTSTAYMELRRLRSDDTAVYYCARHNPETGFQNWGQGTLVTVSS
chain 2: DIVMTQSPESLAVSLGERATINCKSSQSLLFSSNNKNYLAWYQQKPGQPPKLLIYWASTRESGVPDRFSGSGSGTDFTLTLSSLQAEDVAVYFCQQYYTPLYTFGPGTKVEIK
B6: BD55-5380 (protein)
chain 1: EVQLVESGGGLEQPGRSLRLSCAASGFTFEDYAMHWVRQAPGKGLEWVAGINWNRGGIGYADSVKGRFTISRDNAKNSLYLLMNSLRLEDTALYYCAKDKDSSWPYRYFDLWGRGTLVTVSS
chain 2: QSVLTQPPSVSGAPGQRVTISCTGSSSNIGAGYDVHWYQQLPGTAPKPLIYDNTNRPSGVPDRFSGSKSGTSASLAITGLQAEDEADYYCQSYDSSLSGYVIFGGGTKLTVL
B7: BD55-5382 (protein)
chain 1: QLQLQESGPGLVKPSETLSLSCTVSGGSISSTNYYWAWIRQPPGKGLEWIGSFHFGQSIYYNPSLKSRITISVDTSKNQFSLKLRSVTAADTAVYFCASGVVVAAGFYYHYGMDVWGQGTTVTVSS
chain 2: AYELTQPPSVSVSPGQTARITCSGDSLPNQYTYWYQQRPGQAPVVVIYKDNERPSGIPERFSGSSSGTTVTLTISGVLAEDEADYYCLSSEISGTWVFGGGTKLTVL
B8: BD55-5384 (protein)
chain 1: QVQLVQSGAEVKKPGSSVKVSCKTSGGNFNNYAIYWVRQAPGQGLEWMGGIIPIFGTTNYAQNFQGRVTITADESTTTVYMDLSSLRSEDTAVYYCARDGSSPSYSGYDWLSPGWIDPWGQGTLVTVSS
chain 2: IVMTQSPDSLAVSLGERATINCKSSRSVLYSSNNKNHLAWYQHKPGQPPKLLIYWASTRKSGVPDRFSGSGSGTDFTLTISSLQAEDVAVYYCQQYYSPPLTFGGGTKVEIK
B9: BD55-5395 (protein)
chain 1: QVQLVQSGAEVKKPGSSMKVSCKASGGTFSRSAISWVRQAPGQGLEWMGGIIPMFGTPNYAQKFQGRVTITADESTSTAYMELSSLRSEDTAVYYCARDWIYGSGSYYGMDVWGQGTTVSVSS
chain 2: QAVVTQEPSLTVSPGGTVTLTCGSTTGPVTGDHYAYWFQQKPGQAPKTLIYDTAHKHSWTPARFSGSFLGGKAALTLSGAQPEDEAQYYCLLSYSGAFVFGAGTKVTVL
B10: BD55-5404 (protein)
chain 1: QVQLQQWGAGLLKPSEILSLTCAVNGGSFSGFCWSWIRQPPGKGLEWIGEVDHSGGTNYNPSLKSRVTISVDTSQNQFSLKLTSLTAADTAVYYCARGGPRPIYDMLTGDVDYYYYGMDVWGQGTTVTVSS
chain 2: QSALTQPASVSGSPGQSITISCTGTTSDVGGHDSLSWYQQHPGKAPKLIIYDVTKGPSGASDRFSGSKSGNTASLTISGLQAEDEADYYCSSYTSTRRVFGTGTKVTVL
B11: BD55-5408 (protein)
chain 1: QVQLVQSGAEVRKPGASVKVSCKASGYIFTNYLMYWVRQAPGHGLEWMGMIDPISGSTNYAQRFQGRVTMTRDTSTSTVNMELTNLKSEDTAVYYCARDGGMRFGDLSPDNWFDPWGRGTLVTVSS
chain 2: QSVLTQPPSVSGAPGQRVTISCTGSSSNLGAGYDVHWYQQLPGAAPKLLIYGNNNRPSGVPDRFSGSRSGTSASLAITGLLTEDEADYYCQSYDSSSLNGSKVFGTGTKVTVL
B12: BD55-5413 (protein)
chain 1: EVQLLESGGGLVQPGGSLRLSCAASGFTFSNFAMIWVRQAPGKGLEWVSRITGSGGDTYYADSVKGRFTISRDNSKNTLSLKMSSLRPEDTAVYYCAKEWAAAGYLVFDIWGLGTMVTVSS
chain 2: DIQMTQSPSSLSASVGDRVTIFCQASQDVSNYLNWYQQKPGKAPKLLIYDASNLETGVPSRFSGSGSGTDFTFTISSLQPEDIATYYCQQYDNVAPTFGGGTRVEIK

These binders were tested against SARS-CoV-2 Omicron BA.1 spike pseudovirus (assay: pseudovirus neutralization IC50; higher = weaker neutralization).
Method: (§1)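 Single-round VSV luciferase pseudovirus mixed with antibody dilutions for 1 h and put on Huh-7 cells for about a day; IC50 from the dose curve.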

Point of comparison: B10, “pseudovirus neutralization IC50” value 1.52 µg/mL. Against it:
- B1 — higher, > 10 µg/mL
- B2 — higher, > 10 µg/mL
- B3 — higher, > 10 µg/mL
- B4 — higher, > 10 µg/mL
- B5 — higher, > 10 µg/mL
- B6 — higher, > 10 µg/mL
- B7 — higher, > 10 µg/mL
- B8 — higher, > 10 µg/mL
- B9 — higher, > 10 µg/mL
- B11 — higher, > 10 µg/mL
- B12 — higher, > 10 µg/mL

The binders below were run against SARS-CoV-2 Omicron BA.2 spike pseudovirus in the same assay as above.
Method: as §1

Point of comparison: B10, “pseudovirus neutralization IC50” value 1.51 µg/mL. Against it:
- B1 — higher, > 10 µg/mL
- B2 — higher, > 10 µg/mL
- B3 — higher, > 10 µg/mL
- B4 — higher, > 10 µg/mL
- B5 — higher, > 10 µg/mL
- B6 — higher, > 10 µg/mL
- B7 — higher, > 10 µg/mL
- B8 — higher, > 10 µg/mL
- B9 — higher, > 10 µg/mL
- B11 — higher, > 10 µg/mL
- B12 — higher, > 10 µg/mL

Each binder was assayed against SARS-CoV-2 Omicron BA.2.75 spike pseudovirus in the same assay as above.
Method: as §1

Point of comparison: B10, “pseudovirus neutralization IC50” value 1.55 µg/mL. Against it:
- B1 — higher, > 10 µg/mL
- B2 — higher, > 10 µg/mL
- B3 — higher, > 10 µg/mL
- B4 — higher, > 10 µg/mL
- B5 — higher, > 10 µg/mL
- B6 — higher, > 10 µg/mL
- B7 — higher, > 10 µg/mL
- B8 — higher, > 10 µg/mL
- B9 — higher, > 10 µg/mL
- B11 — higher, > 10 µg/mL
- B12 — higher, > 10 µg/mL

What follows are binders tested against SARS-CoV-2 Omicron BA.5 spike pseudovirus in the same assay as above.
Method: as §1

Point of comparison: B10, “pseudovirus neutralization IC50” value 1.49 µg/mL. Against it:
- B1 — higher, > 10 µg/mL
- B2 — higher, > 10 µg/mL
- B3 — higher, > 10 µg/mL
- B4 — higher, > 10 µg/mL
- B5 — higher, > 10 µg/mL
- B6 — higher, > 10 µg/mL
- B7 — higher, > 10 µg/mL
- B8 — higher, > 10 µg/mL
- B9 — higher, > 10 µg/mL
- B11 — higher, > 10 µg/mL
- B12 — higher, > 10 µg/mL

Each binder was assayed against SARS-CoV-2 Omicron BQ.1.1 spike pseudovirus in the same assay as above.
Method: as §1

Point of comparison: B10, “pseudovirus neutralization IC50” value 1.68 µg/mL. Against it:
- B1 — higher, > 10 µg/mL
- B2 — higher, > 10 µg/mL
- B3 — higher, > 10 µg/mL
- B4 — higher, > 10 µg/mL
- B5 — higher, > 10 µg/mL
- B6 — higher, > 10 µg/mL
- B7 — higher, > 10 µg/mL
- B8 — higher, > 10 µg/mL
- B9 — higher, > 10 µg/mL
- B11 — higher, > 10 µg/mL
- B12 — higher, > 10 µg/mL

Each binder was assayed against SARS-CoV-2 Omicron XBB spike pseudovirus in the same assay as above.
Method: as §1

Point of comparison: B10, “pseudovirus neutralization IC50” value 1.36 µg/mL. Against it:
- B1 — higher, > 10 µg/mL
- B2 — higher, > 10 µg/mL
- B3 — higher, > 10 µg/mL
- B4 — higher, > 10 µg/mL
- B5 — higher, > 10 µg/mL
- B6 — higher, > 10 µg/mL
- B7 — higher, > 10 µg/mL
- B8 — higher, > 10 µg/mL
- B9 — higher, > 10 µg/mL
- B11 — higher, > 10 µg/mL
- B12 — higher, > 10 µg/mL

These binders were tested against SARS-CoV-2 early D614G spike pseudovirus in the same assay as above.
Method: as §1

Point of comparison: B2, “pseudovirus neutralization IC50” value 0.894 µg/mL. Against it:
- B1 — 18-fold lower, 0.0503 µg/mL
- B3 — higher, > 10 µg/mL
- B4 — 24-fold lower, 0.0369 µg/mL
- B5 — 66-fold lower, 0.0135 µg/mL
- B6 — 34-fold lower, 0.0264 µg/mL
- B7 — 2.9-fold lower, 0.304 µg/mL
- B8 — within 1.5-fold, 0.963 µg/mL
- B9 — higher, > 10 µg/mL
- B10 — 1.7-fold higher, 1.49 µg/mL
- B11 — 5.2-fold lower, 0.171 µg/mL
- B12 — higher, > 10 µg/mL
